PubChem BioAssay AID504761 | Drosophila RNAi Screening Center | 2011

Assay: 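Genome-wide fly cell screen for genes dengue virus requires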 (primary screen)
System: D.Mel-2 cells from Drosophila
Reagents: long dsRNA against Drosophila genes
Conditions: infection with dengue virus type 2; dose and infection time not stated
Measurement: 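Per well on two replicate plates, imaging gave the percent of cells positive for viral envelope protein, ranked by infection, and a nuclear count of cells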
Scale: infection score: higher = more virus-infected cells; cell count: higher = more cells in the well
Rule for the call: 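Low infection ranks in the two replicates (chance level up to 0.065) followed by a retest with a 1.5-fold or larger significant decrease, p below 0.05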
Calls: active = confirmed: knock-down lowers infection; inactive = not picked or not confirmed
In all, the deposit lists about 22,000 reagents; shown is an unselected part of those with a known target gene and a result. Of all reagents, 116 (0.52%) were called active. 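Calls depend on retest data that are not deposited; infection was ranked per plate without normalising between plates; the unit of the infection score is not given.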 The raw values are shown without normalisation. Not given: the amount of reagent, the time to read-out.

| target | DRSC id | infection score, replicate 1 | infection score, replicate 2 | cell count, replicate 1 | cell count, replicate 2 | outcome |
| --- | --- | --- | --- | --- | --- | --- |
| CG14183 | DRSC10182 | 2.75 | 1.93 | 5826 | 6988 | inactive |
| AdamTS-A | DRSC14992 | 11.1 | 5.17 | 6054 | 6228 | inactive |
| AdamTS-A | DRSC15966 | 5.59 | 14.5 | 6209 | 6475 | inactive |
| CG17030 | DRSC08503 | 1.47 | 5.2 | 6105 | 5824 | inactive |
| CG42564 | DRSC12518 | 1.19 | 2.86 | 6306 | 6709 | inactive |
| Csk | DRSC12861 | 2.08 | 0.64 | 5905 | 6061 | inactive |
| Csk | DRSC23272 | 2.1 | 15.4 | 5910 | 6545 | inactive |
| Csk | DRSC26697 | 2.29 | 1.69 | 6214 | 6381 | inactive |
| CG13442 | DRSC06402 | 4.43 | 1.33 | 5736 | 6488 | inactive |
| CG13442 | DRSC25909 | 2.18 | 4.2 | 6369 | 6311 | inactive |
| SrpRbeta | DRSC21668 | 0.62 | 3.23 | 6138 | 6531 | inactive |
| SrpRbeta | DRSC27853 | 2.98 | 18.8 | 5833 | 5344 | inactive |
| CG34430 | DRSC06499 | 11.3 | 6.12 | 5058 | 1602 | inactive |
| ND-23 | DRSC15526 | 25.3 | 12 | 5339 | 6153 | inactive |
| FoxL1 | DRSC08717 | 2.12 | 3.83 | 6378 | 6297 | inactive |
| FoxL1 | DRSC25265 | 4.36 | 2.62 | 6152 | 6039 | inactive |
| Or85b | DRSC16765 | 7.86 | 12.5 | 6006 | 6372 | inactive |
| RnpS1 | DRSC15154 | 9.02 | 16.6 | 5542 | 5397 | inactive |
| RhoGAP68F | DRSC10717 | 7.85 | 3.74 | 6052 | 5986 | inactive |
| CG13203 | DRSC06327 | 10.9 | 3.54 | 6877 | 6301 | inactive |
| CG13203 | DRSC29202 | 13.7 | 13.4 | 5063 | 5529 | inactive |
| Arp53D | DRSC05923 | 27.1 | 16.2 | 5550 | 6963 | inactive |
| Pde11 | DRSC02028 | 5.93 | 6.25 | 5899 | 6226 | inactive |
| Pde11 | DRSC02460 | 10.9 | 1.32 | 5375 | 6050 | inactive |
| Pde11 | DRSC26665 | 1.57 | 3.62 | 6298 | 6350 | inactive |
| CG15614 | DRSC06567 | 9.36 | 12.1 | 6476 | 6209 | inactive |
| Sr-CIII | DRSC22262 | 1.78 | 3.45 | 6186 | 6382 | inactive |
| Pfk | DRSC07506 | 2.74 | 7.28 | 5650 | 6140 | inactive |
| Pfk | DRSC27413 | 16.5 | 29.5 | 6305 | 4582 | inactive |
| Tlk | DRSC17731 | 0.54 | 4.54 | 7156 | 6801 | inactive |
| Tlk | DRSC22924 | 0.89 | 1.85 | 6886 | 7466 | inactive |
| Tlk | DRSC22926 | 1.02 | 1.24 | 6753 | 7577 | inactive |
| Tlk | DRSC23163 | 3.61 | 22.2 | 6840 | 6981 | inactive |
| lush | DRSC11364 | 7.02 | 7.64 | 6392 | 6318 | inactive |
| CG2641 | DRSC15441 | 10.5 | 17.7 | 3400 | 5202 | inactive |
| fzr | DRSC18781 | 9.92 | 24.6 | 5807 | 6445 | inactive |
| fzr | DRSC28236 | 24 | 12.6 | 5561 | 1663 | inactive |
| spz6 | DRSC04533 | 2.89 | 16 | 6266 | 4759 | inactive |
| Pgant1 | DRSC07095 | 34.5 | 12.7 | 5736 | 6940 | inactive |
| CycB | DRSC04605 | 12 | 23.1 | 5853 | 6113 | inactive |
| Tsp68C | DRSC09295 | 1.63 | 0.82 | 6197 | 6492 | inactive |
| Tsp68C | DRSC28942 | – | 0.24 | 247 | 411 | inactive |
| Zpr1 | DRSC18432 | 1.45 | 4.39 | 6820 | 6556 | inactive |
| Dsk | DRSC12347 | 2.69 | 21 | 6531 | 5745 | inactive |
| SoxN | DRSC03440 | 8.3 | 3.73 | 6207 | 6300 | inactive |
| SoxN | DRSC24984 | 3.11 | 2.51 | 5908 | 6184 | inactive |
| CG31823 | DRSC01887 | 17.3 | 0.57 | 5444 | 6709 | inactive |
| Nle | DRSC00763 | 6.86 | 5.67 | 6573 | 6559 | inactive |
| CG5070 | DRSC19932 | 1.93 | 0.63 | 6574 | 6717 | inactive |
| CG5070 | DRSC28082 | 14.1 | 9.93 | 6559 | 6064 | inactive |
| Sgs5bis | DRSC16263 | 2.23 | 8.55 | 6183 | 5110 | inactive |
| Irp-1B | DRSC16720 | 4.28 | 14.9 | 6403 | 6881 | inactive |
| Irp-1B | DRSC24261 | 1.21 | 2 | 6760 | 6806 | inactive |
| Frmd5 | DRSC02802 | 4.49 | 8.19 | 6438 | 6420 | inactive |
| CG13192 | DRSC06317 | 3.75 | 15 | 6672 | 5632 | inactive |
| BuGZ | DRSC02642 | 17.5 | 2.24 | 5324 | 5850 | inactive |
| BuGZ | DRSC02643 | 3.22 | 4.2 | 6020 | 6358 | inactive |
| BuGZ | DRSC25285 | 7.9 | 7.46 | 5174 | 3915 | inactive |

In a second layout: 6 of the entries above
CG13442 [DRSC25909] | infection score, replicate 1: 2.18; infection score, replicate 2: 4.2; cell count, replicate 1: 6369; cell count, replicate 2: 6311; outcome: inactive
SrpRbeta [DRSC21668] | infection score, replicate 1: 0.62; infection score, replicate 2: 3.23; cell count, replicate 1: 6138; cell count, replicate 2: 6531; outcome: inactive
SrpRbeta [DRSC27853] | infection score, replicate 1: 2.98; infection score, replicate 2: 18.8; cell count, replicate 1: 5833; cell count, replicate 2: 5344; outcome: inactive
CG34430 [DRSC06499] | infection score, replicate 1: 11.3; infection score, replicate 2: 6.12; cell count, replicate 1: 5058; cell count, replicate 2: 1602; outcome: inactive
ND-23 [DRSC15526] | infection score, replicate 1: 25.3; infection score, replicate 2: 12; cell count, replicate 1: 5339; cell count, replicate 2: 6153; outcome: inactive
FoxL1 [DRSC08717] | infection score, replicate 1: 2.12; infection score, replicate 2: 3.83; cell count, replicate 1: 6378; cell count, replicate 2: 6297; outcome: inactive
